Measured values taken from US7141557B2, “Lipid analogs for treating viral infections” (Wake Forest University, priority 1994, dated 2006).

Test system: HIV-1
Test: Anti-HIV-1 syncytial plaque assay using CEM-SS cell monolayers
Type: cell-based, human immunodeficiency virus type 1 (HIV-1)
Conditions: IC50 for cytotoxicity divided by IC50 for anti-HIV-1 activity, CEM-SS cells
Excerpt: In brief, CEM-SS cell monolayers were infected with HIV-1. Infected cells were overlaid with RPMI-1640 medium plus 10 percent fetal bovine serum (FBS) supplemented with different concentrations of inhibitor. Plaques were counted at five days after infection. In this assay HIV-1 syncytial plaques are seen as large, multicellular foci (10 to 25 nuclei/syncytium) that appear either brown and granular or clear. Since the number of HIV-1 syncytial plaques correlates with reverse transcriptase (RT) and p24 core antigen activity in the HIV-1 infected cell overlay fluids, the syncytial plaque assay can be used to quantify the amount of infectious virus. Reverse transcriptase activity was assayed according to a described procedure (B. J. Poeisz et al., Proc. Natl. Acad. Scie. (U.S.A.) 77, 7415 (1980)). The activity of p24 core antigen induced by HIV-1 infection of CEM-SS cells was measured spectrophotometrically using the commercial Coulter EIA.

Compound | Differential Selectivity
CCCCCCCCCCCC(=O)NCC(COP(=O)([O-])OCC[N+](C)(C)C)OCCCCCCCCCC (stereo not shown) [CP-128, 1-dodecanamido-2-decyloxypropyl-3-phosphocholine] | 225.7
CCCCCCCCCCCCOCC(COP(=O)([O-])OCC[N+](C)(C)C)OCCCCCCCCCC (stereo not shown) [CP-129, 1-dodecyloxy-2-decyloxypropyl-3-phosphocholine] | 176.0
CCCCCCCCCCCC(=O)NCC(COP(=O)([O-])OCC[N+](C)(C)C)OCCCCCCCC (stereo not shown) [CP-130, 1-dodecanamido-2-octyloxypropyl-3-phosphocholine] | 611.7
CCCCCCCCCCCCOC(CNC(=O)CCCCCCCCCCC)COP(=O)([O-])OCC[N+](C)(C)C (stereo not shown) [CP-131, 1-dodecanamido-2-dodecyloxypropyl-3-phosphocholine] | 114.2
